From the supplement of paper PMC9931576
Human monoclonal antibodies against the spike receptor-binding domain (heavy:light variable regions). IC50 against pseudoviruses bearing the spike of naturally observed variants; lower = stronger; >10 µg/ml means not reached at the top dose. No active / inactive call. The stated detection limit is 0.0005 µg/ml; values near or below 0.001 µg/ml lie at the floor of the assay.

Columns and labels:
Assay in all cases: pseudovirus neutralization IC50; higher = weaker neutralization
[1] = target: SARS-CoV-2 Omicron BA.1 spike pseudovirus
Protocol: (§1)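 Single-round VSV luciferase pseudovirus mixed with antibody dilutions for 1 h and put on Huh-7 cells for about a day; IC50 from the dose curve.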

[2] = target: SARS-CoV-2 Omicron BA.2 spike pseudovirus
Protocol: as §1

[3] = target: SARS-CoV-2 Omicron BA.2.75 spike pseudovirus
Protocol: as §1

[4] = target: SARS-CoV-2 Omicron BA.5 spike pseudovirus
Protocol: as §1

[5] = target: SARS-CoV-2 Omicron BQ.1.1 spike pseudovirus
Protocol: as §1

[6] = target: SARS-CoV-2 Omicron XBB spike pseudovirus
Protocol: as §1

[7] = target: SARS-CoV-2 early D614G spike pseudovirus
Protocol: as §1

Binder | pseudovirus neutralization IC50 [1] | pseudovirus neutralization IC50 [2] | pseudovirus neutralization IC50 [3] | pseudovirus neutralization IC50 [4] | pseudovirus neutralization IC50 [5] | pseudovirus neutralization IC50 [6] | pseudovirus neutralization IC50 [7]
XGv-080 (protein) chain 1: QVQLQESGPGLVKPSGTLSLTCIVSGGSVTSGSYYWSWIRQPPGKGLEWIGYISYSGSTNYNPSLKSRVTISVDTSKNQFSLKLTSVTAADTAVYHCATRAYSTSWLGEGDAFDIWGQGTMVTVSS chain 2: EIVLTQSPGTLSLSPGERATLSCRASQSVSYTYLAWFQQKPGQAPRLLIYGAFSRAPGIPDRFSGSGSGTDFTLTISRLEPEDFAVYYCQQYGSSIFTFGPGTKVDIK | 0.223 µg/mL | 0.357 µg/mL | 0.282 µg/mL | 0.292 µg/mL | > 10 µg/mL | > 10 µg/mL | > 10 µg/mL
XGv-107 (protein) chain 1: QITLKESGPTLVKPTQTLTLTCTFSELSLSTSGVGVGWIRQPPGKALEWLALIYWDGDKRYSPSLKSRLTITKGTSKNQVVLTMTNMDPVDTATYYCAHHTVVTIFDYWGQGTLVTVSS chain 2: QSALTQPASVSGSPGQSITISCTATSSDVGAYNYVSWYQQHPGKAPKLMIYEVSNRPSGVSNRFSGSKSGNTASLTISGLQAEDEADYYCSSYTTSSTVFGGGTKLTVL | 0.781 µg/mL | 0.00956 µg/mL | 0.678 µg/mL | 0.0099 µg/mL | > 10 µg/mL | > 10 µg/mL | 0.0291 µg/mL
XGv-124 (protein) chain 1: EVQLVESGGGLVKPGGSLRLSCAASGFTFNRYTLNWVRQAPGKGLEWVSSISSNSEYISYADSVKGRFTLSRDNAKNSMFLQMNSLRAEDTAVYYCARASPYDILTEGAFDYWGQGTLVTVSS chain 2: EIVMTQSPATLSVSPGERVTLSCRASLSVSTNLAWYQQKPGQAPRLLIYGASTRATGLPARFSGSGSGTEFTLTITSLQSEDFAVYYCQQYHEWPTYTFGQGTKVEIK | 2.29 µg/mL | 2.16 µg/mL | 3.75 µg/mL | 2.5 µg/mL | 2.42 µg/mL | 2.1 µg/mL | 0.736 µg/mL
XGv-152 (protein) chain 1: QVQLVQSGAAVKEPGSSVKVSCKTSGGTFRNYAINWVRQAPGQGLEWMGGIIRIFDRTDYAQKFQGRITIIADETTNTAYMELRSLRSEDTAVYYCARGRALTRGILATMTMDVWGQGTTVTVSS chain 2: DIVMTQSPDSLAVSLGERATINCKSSQSLLYSSNNKNFLGWYQQKPGQPPKLLIYWASTRESGVPDRFSGSGSGTDFTLTISSLQAEDVATYYCHQYYSMPLTFGGGTKVEIK | 1.02 µg/mL | 1.31 µg/mL | 1.86 µg/mL | > 10 µg/mL | > 10 µg/mL | > 10 µg/mL | 0.0358 µg/mL
XGv-158 (protein) chain 1: QVQLVQSGAEVKKPGASVKVSCKTSGYTFSSYGISWVRQAPGQGLEWMGWISSYNGNTKYAQKLQGRVTMTTDTSTTTAYMELRSLTLDDTAVYYCARSLGLWFGVDYWGQGTLVTVSS chain 2: NFMLTQPHSVSESPGETVTISCTGSSGSIASNYVQWYQQRPGSAPTTVIYEDNQRPSGVPDRFSGSIDSSSNSASLTISGLKTEDEADYYCQSYDGSNVIFGGGTKLTVL | > 10 µg/mL | > 10 µg/mL | > 10 µg/mL | > 10 µg/mL | > 10 µg/mL | > 10 µg/mL | 0.354 µg/mL
XGv-174 (protein) chain 1: QVQLVESGGGVVQPGRSLRLSCAASGFIFSSYVMHWVRQAPGKGLEWVALISYDGRRQYYADSVKGRFTISRANTNNTLFLHMNSLRTEDTAVYYCTTGDDPYRSAWYTQFDYWGQGALVTVSS chain 2: QSVLTQPPSASGTPGQKVTISCSGSSSNIGSNSVNWYQQVPGTAPKLLIYDNTQRPSGVPDRFSGSKSATSASLAISGLQSEDEADYYCAAWDDSLHVVFGGGTKLTV | 2.21 µg/mL | 1.74 µg/mL | 1.54 µg/mL | > 10 µg/mL | > 10 µg/mL | > 10 µg/mL | 0.017 µg/mL
XGv-175 (protein) chain 1: QVQLVESGGGVVQPGRSLRLSCAASGFIFSSYVMHWVRQAPGKGLEWVALISYDGSSKYYADSVKGRFTISRANAKNTLYLQMNSLRTEDTAVYYCTTGDDPYRSAWYTQFDYWGQGTQVTVSS chain 2: QSVLTQPPSASGTPGQKVTISCSGSSSNIGSNTVNWYQQVPGTAPKLLIYDNTQRPSGVPDRFSGSKSATSASLAISGLQSEDEADYYCAAWDDSLHVVFGGGTKLTVL | 0.0923 µg/mL | 0.0849 µg/mL | 0.241 µg/mL | > 10 µg/mL | > 10 µg/mL | > 10 µg/mL | 0.0251 µg/mL
XGv-198 (protein) chain 1: QVQLVQSGAEVKKPGSSVKVSCKASGGTFSSYTISWVRQAPGQGLEWMGKIFPVLGVANYAQNFQGRVTLTADKSTRTAFMELTSLRSDDTAVYYCARDFTYRTNYDAFDLWGQGTVVTVSS chain 2: QSVLTQPPSVSGAPGQRVTISCTGSNSNIGAGYDVHWYQQLPGTAPKLLIYGNNNRPSGVPDRFSGSRSGTSASLAITGLQAEDEADYYCQSYDSSLTGVIFGGGTKLTVL | 0.7 µg/mL | 0.565 µg/mL | 0.421 µg/mL | > 10 µg/mL | > 10 µg/mL | > 10 µg/mL | 0.0938 µg/mL
XGv-212 (protein) chain 1: QVQLVQSGTEVKKPGSSVKVSCKASGGTFSNTISWVRQAPGQGLEWMGRIIPILGVANYAQNFQGRVTISADKSTNTAYLELSSLRSEDTAVYFCARDNGYNDWYFDLWGRGTLVTVSS chain 2: QSVLTQPPSVSGAPGQRVTISCTGSNSNIGAGYDVHWYQQLPGTAPKLLIYGNTNRPSGVPDRFSGSKSDTSASLAITGLQAEDEADYYCQSYDSSLSDSVFGGGTKLTVL | 0.189 µg/mL | 0.229 µg/mL | 0.251 µg/mL | 0.162 µg/mL | > 10 µg/mL | 0.444 µg/mL | 0.162 µg/mL
XGv-225 (protein) chain 1: EVQLVESGGGFVQSGGSLRLSCAASGFTFSNYWMSWVRQAPGKGLEWVANIKQDGSETYYVDSVKGRFTISRDNALNSLFLQMHSLRADDTAVYYCARDLGILWFGELFRGVGRGQGTLVTVSS chain 2: DIQMTQSPSSLSASVGDRVTITCRASQGISVSLAWYQQKPGTAPKLLLYAASTLESGVPSRFSGSGSGTDYTLTISSLQPEDFATYYCQQYYTIPRTFGQGTRVDIK | 0.562 µg/mL | 0.572 µg/mL | > 10 µg/mL | 0.468 µg/mL | > 10 µg/mL | > 10 µg/mL | 0.0726 µg/mL
XGv-232 (protein) chain 1: QVQLVQSGAEVKKPGSSVKVSCKASGGTFSRYAISWVRQAPGQGLEWMGRIIPIFSISNYAQKFQGRVTITADKSTSTAYMELSSLRSEDTAVYYCARGPYSYDSGSYQLDYWGQGTLVTVSS chain 2: DIQMTQSPSSLSASVGDRVTITCRASQSISSYLNWYQQKPGKAPQLLIYAASSLQSGVPSRFSGSGSGSDFTLTISSLQPEDFATYYCQQSHSTPRTFGQGTKVEIK | > 10 µg/mL | > 10 µg/mL | > 10 µg/mL | > 10 µg/mL | > 10 µg/mL | > 10 µg/mL | 0.00107 µg/mL
XGv-252 (protein) chain 1: EVQLVESGGGLVQPGGSLRLSCAASGFTFSTYDMHWVRQTTGKGLEWVSVIGTSGDTYYSDSVKGRFTISRENARHSLYLQMNSLRAGDTAVYYCARDSGTTVTVLDFWGQGTLVTVSS chain 2: DIQMTQSPPSLSASVGDRVTITCRTSQSIRSYLNWFQQKPGKAPKLLIYAASNLQSGVPSRFSGSGSGTDFTLTISSLQPEDFATYYCQQSYSNPQITFGPGTKVDIK | 6.55 µg/mL | 4.82 µg/mL | 4.81 µg/mL | 5.19 µg/mL | 5.91 µg/mL | 4.38 µg/mL | 2.86 µg/mL
